# The entries are a selection whose mix differs from that of the whole data set. Inconclusive results are not listed. Active and inactive are the calls of the source. Calls follow the shape of the full dose curve; tested in HEK293T cells.
# Assay: High Throughput Screening for Foot and Mouth Disease Virus Antivirals; also: read-out not given here; nearly all actives have a fitted effect of over 45% in size
# Conditions: FMDV antiviral cell-based qHTS; at 57.9 µM (top of the series)
# % is scaled to controls: 0 for no effect and ±100 for the full control effect.
row,SMILES,"activity change, negative = inhibition"
1,NC(=O)Nc1ccc([As](=O)(O)O)cc1,inactive: -21.3%

# From PubChem BioAssay AID1159524 (National Center for Advancing Translational Sciences (NCATS), 2015)
